Anti-infective test results gathered from many reports (values: NIAID ChemDB through PubChem).

Shared fields: toxicity to cultured cells; cells: HEL; read-out: CC50

Rows are shuffled and stem from different studies.

{"smiles": "Nc1ccn([C@H]2CC[C@@H](CO)O2)c(=O)n1", "method": "MTS", "value": "231 µM"}
{"smiles": "Nc1nc(N)c2ncn(CCOCP(=O)(O)O)c2n1", "value": "40 µg/mL"}
{"smiles": "Nc1ccn(C[C@H]2COP(=O)(O)CO2)c(=O)n1", "value": "707 µM"}
{"smiles": "O=c1[nH]c(=O)n([C@H]2C[C@H](O)[C@@H](CO)O2)cc1/C=C/Br", "value": ">600 µM"}
{"smiles": "Nc1ncc2ncn(CCOCP(=O)(O)O)c2n1", "value": ">400 µg/mL"}
{"smiles": "Nc1nc2c(ncn2[C@@H]2O[C@H](CO)[C@H]2CO)c(=O)[nH]1", "value": "300 µM"}
{"smiles": "c1ccc([C@H]2O[C@@H]2c2ccccc2)cc1", "value": ">50 µM"}
{"smiles": "C[C@H]1C[C@@H](n2cnc3c(N)ncnc32)[C@H](O)[C@@H]1O", "value": ">50 µg/mL"}
{"smiles": "Nc1nc2c(ncn2COC(CO)CO)c(=O)[nH]1", "value": "242 µg/mL"}
{"smiles": "Nc1nc(N)c2ncn(C3C[C@H](O)[C@@H](O)C3)c2n1", "value": "139 µg/mL"}
{"smiles": "NC(=O)c1nc(F)c[nH]c1=O", "value": ">1000 µg/mL"}
{"smiles": "C[C@@H](O)C1=C[C@@H](n2cnc3c(N)ncnc32)[C@H](O)[C@@H]1O", "value": ">50 µg/mL"}
{"smiles": "Nc1ncc2ncn(CCOCP(=O)(O)O)c2n1", "value": ">400 µg/mL"}
{"smiles": "Nc1ncnc2c1ncn2[C@@H]1CC[C@@H](O)[C@H]1O", "value": "20 µg/mL"}
{"smiles": "Cc1c(CC(=O)O)ccc(O)c1O", "value": ">200 µg/mL"}
{"smiles": "C=Cc1cn([C@H]2C[C@H](O)[C@@H](CO)O2)c(=O)[nH]c1=O", "value": "17 µM"}
{"smiles": "O=c1ccn(CC(CO)OCP(=O)(O)O)c(=O)[nH]1", "value": ">400 µg/mL"}
{"smiles": "CC(C)(C)C(=O)OCOP1(=O)CO[C@@H](Cn2cnc(N)nc2=O)CO1", "value": "14 µg/mL"}
{"smiles": "C=C[C@H]1C[C@@H](n2cnc3c(N)ncnc32)[C@H](O)[C@@H]1O", "value": "50 µg/mL"}
{"smiles": "Nc1nc(N)c2ncn(CC(CO)OCP(=O)(O)O)c2n1", "value": ">200 µg/mL"}
{"smiles": "O=c1[nH]c(=O)n([C@H]2C[C@H](O)[C@@H](CO)O2)cc1/C=C/Br", "value": "135 µM"}
{"smiles": "O=C(O)P(=O)(O)O", "value": "200 µg/mL"}
{"smiles": "Nc1nc(N)c2nnn(C[C@H]3CC[C@@H](CO)C3)c2n1", "value": "50 µg/mL"}
{"smiles": "C(=C\\c1ccccc1)/c1ccccc1", "value": ">50 µM"}
{"smiles": "Cc1cc(O)cc(O)c1CC(=O)O", "value": "100 µg/mL"}
{"smiles": "C[C@H]1C[C@@H](n2cnc3c(N)ncnc32)[C@H](O)[C@@H]1O", "value": "10 µg/mL"}
{"smiles": "Nc1nc(Cl)c2ncn(C[C@H]3CC[C@@H](CO)C3)c2n1", "value": "2 µg/mL"}
{"smiles": "C(=C/c1ccccc1)/c1ccccc1", "value": ">50 µM"}
{"smiles": "Nc1ccn(C[C@@H](CO)OCP(=O)(O)O)c(=O)n1", "value": "50 µg/mL"}
{"smiles": "C=Cc1cn([C@@H]2O[C@H](CO)[C@@H](O)[C@@H]2F)c(=O)[nH]c1=O", "value": "114 µM"}
{"smiles": "O=C(O)/C=C/c1ccc(O)c(O)c1", "value": "74 µg/mL"}
{"smiles": "Nc1ccn(C[C@@H](CO)OCP(=O)(O)O)c(=O)n1", "method": "MTS", "value": "83 µM"}
{"smiles": "O=C(O)/C=C/c1ccc(O)c(O)c1", "value": "175 µg/mL"}
{"smiles": "O=c1[nH]cnc2c1ncn2CCOCP(=O)(O)O", "value": "400 µg/mL"}
{"smiles": "CC(C)(C)C(=O)OCOC(=O)CN(CC(=O)OCOC(=O)C(C)(C)C)P(=O)(OC[C@H]1O[C@@H](n2cc(/C=C/Br)c(=O)[nH]c2=O)C[C@@H]1O)Oc1ccccc1", "value": "43 µM"}
{"smiles": "Nc1ncnc2c1ncn2CCOCP(=O)(OCCOCCCCCCCCCCO)OCCOCCCCCCCCCCO", "method": "cell count", "value": "62.5 µM"}
{"smiles": "Nc1nccc2c1ncn2C(C=O)OC(C=O)CO", "value": "16 µg/mL"}
{"smiles": "O=c1[nH]c(=O)n(C2CC(O)C(CO)O2)cc1/C=C/Br", "value": ">250 µM"}
{"smiles": "O=c1[nH]c(=O)n([C@H]2C[C@H](O)[C@@H](CO)O2)cc1/C=C/Br", "method": "MTS", "value": ">500 µM"}
{"smiles": "C[C@]12CC[C@@H]3c4ccc(O)cc4CC[C@H]3[C@@H]1CC[C@@H]2O", "value": ">20 µM"}
{"smiles": "CC[C@H]1C[C@@H](n2cnc3c(N)ncnc32)[C@H](O)[C@@H]1O", "value": "30 µg/mL"}
{"smiles": "Nc1nc(N)c2ncn(C[C@H]3COP(=O)(OCC(F)(F)F)CO3)c2n1", "value": "≥219 µM"}
{"smiles": "Nc1ccn(C[C@H]2COP(=O)(O)CO2)c(=O)n1", "method": "MTS", "value": "344 µM"}
{"smiles": "CCCCCCCCCCCCCCCCOCCCOP(=O)([O-])CO[C@H](CO)Cn1cnc2c(N)nc(N)nc21", "value": "≥161 µM"}
{"smiles": "O=c1[nH]c(=O)n([C@H]2C[C@H](O)[C@@H](CO)O2)cc1-c1ccc(Cl)s1", "value": "290 µM"}
{"smiles": "CCc1cn([C@@H]2O[C@H](CO)[C@@H](O)[C@@H]2F)c(=O)[nH]c1=O", "value": ">584 µM"}
{"smiles": "Nc1nccc2c1ncn2C[C@@H](CO)OCP(=O)(O)O", "value": "62 µM"}
{"smiles": "C[C@@]1(CO)[C@H](O)CC[C@@]2(C)[C@H]1CC[C@H]1C[C@@H]3C[C@@]12CC[C@]3(O)CO", "value": ">200 µg/mL"}
{"smiles": "Nc1nc2c(nnn2C[C@H]2CC[C@@H](CO)C2)c(=O)[nH]1", "value": "150 µg/mL"}
{"smiles": "Br[C@H](c1ccccc1)[C@H](Br)c1ccccc1", "value": ">50 µM"}
{"smiles": "Nc1nc2c(ncn2COCCO)c(=O)[nH]1", "value": ">844 µM"}
{"smiles": "Cc1cn([C@H]2C[C@H](N=[N+]=[N-])[C@@H](CO)O2)c(=O)[nH]c1=O", "method": "MTS", "value": "175 µM"}
{"smiles": "O=c1[nH]c(=O)n([C@@H]2O[C@H](CO)[C@@H](O)[C@@H]2O)cc1/C=C/I", "value": ">404 µM"}
{"smiles": "Nc1nc2c(ncn2COC(CO)CO)c(=O)[nH]1", "value": "1077 µM"}
{"smiles": "Nc1ccn([C@@H]2CS[C@H](CO)O2)c(=O)n1", "method": "MTS", "value": "208 µM"}
{"smiles": "O=C([O-])CN(CCN(CC(=O)[O-])CC(=O)[O-])CCN(CC(=O)[O-])CC(=O)[O-].[Ca+2].[Na+].[Na+].[Na+]", "value": "83.56 µg/mL"}
{"smiles": "Nc1nc2c(ncn2CCOCP(=O)(O)O)c(=O)[nH]1", "value": "2.5 µg/mL"}

The last 3 rows once more:

Nc1ccn([C@@H]2CS[C@H](CO)O2)c(=O)n1 ; method: MTS ; value: 208 µM
O=C([O-])CN(CCN(CC(=O)[O-])CC(=O)[O-])CCN(CC(=O)[O-])CC(=O)[O-].[Ca+2].[Na+].[Na+].[Na+] ; value: 83.56 µg/mL
Nc1nc2c(ncn2CCOCP(=O)(O)O)c(=O)[nH]1 ; value: 2.5 µg/mL

CCn is the concentration with n% toxicity to the cells.